{"source": "PubChem BioAssay AID434987", "about": "(Southern Research Specialized Biocontainment Screening …, 2010)", "tested_on": "M. tuberculosis H37Rv growth inhibition with meropenem", "test": "dose response, H37Rv, with and without meropenem (AID 434987);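 further: growth over 7 days at 37 °C before Alamar Blue read on day 9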", "key": {"[1]": {"settings": "M. tuberculosis H37Rv growth inhibition, measured here: IC50 without meropenem"}, "[2]": {"settings": "M. tuberculosis H37Rv growth inhibition, measured here: IC90 without meropenem"}, "[3]": {"settings": "measured here: IC90 with meropenem"}}, "note": "The source made the active and inactive calls. How the calls were made is not given here."}
{"smiles": "CCOC(=O)Nc1ccc([As](=O)(O)O)c(O)c1", "values": [{"measurement": "IC50", "result": 4.21, "unit": "µM"}, {"measurement": "IC50", "setting": "[1]", "result": 15.6, "unit": "µM"}, {"measurement": "IC90", "setting": "[2]", "result": 36.1, "unit": "µM"}, {"measurement": "IC90", "setting": "[3]", "result": "> 100", "unit": "µM"}]}
{"smiles": "Nc1ccc([As](=O)(O)c2ccc(N)cc2)cc1", "values": [{"measurement": "IC50", "result": 6.6, "unit": "µM"}, {"measurement": "IC50", "setting": "[1]", "result": 21.2, "unit": "µM"}, {"measurement": "IC90", "setting": "[2]", "result": 34.9, "unit": "µM"}, {"measurement": "IC90", "setting": "[3]", "result": 63.9, "unit": "µM"}]}
{"smiles": "Nc1ccc([As](=O)(O)c2ccc([N+](=O)[O-])cc2)cc1", "values": [{"measurement": "IC50", "result": 2.04, "unit": "µM"}, {"measurement": "IC50", "setting": "[1]", "result": 10.1, "unit": "µM"}, {"measurement": "IC90", "setting": "[2]", "result": 36.4, "unit": "µM"}, {"measurement": "IC90", "setting": "[3]", "result": 7.99, "unit": "µM"}]}
{"smiles": "O=[As](O)(c1ccc(O)cc1)c1ccccc1O", "values": [{"measurement": "IC50", "result": "inactive: 12.7 µM"}, {"measurement": "IC50", "setting": "[1]", "result": 30, "unit": "µM"}, {"measurement": "IC90", "setting": "[2]", "result": 51.3, "unit": "µM"}, {"measurement": "IC90", "setting": "[3]", "result": 57.6, "unit": "µM"}]}
